Data published in patent US20230384322A1, “COMPLEMENTOME ASSAY” (Complement Therapeutics Limited, priority 2020, published 2023).

B1: FHL-1: truncated form of FH comprising the first seven CCP domains, SEQ ID NO:2 (protein, listed as Homo sapiens)
chain: MRLLAKIICLMLWAICVAEDCNELPPRRNTEILTGSWSDQTYPEGTQAIYKCRPGYRSLGNVIMVCRKGEWVALNPLRKCQKRPCGHPGDTPFGTFTLTGGNVFEYGVKAVYTCNEGYQLLGEINYRECDTDGWTNDIPICEVVKCLPVTAPENGKIVSSAMEPDREYHFGQAVRFVCNSGYKIEGDEEMHCSDDGFWSKEKPKCVEISCKSPDVINGSPISQKIIYKENERFQYKCNMGYEYSERGDAVCTESGWRPLPSCEEKSCDNPYIPNGDYSPLRIKHRTGDEITYQCRNGFYPATRGNTAKCTSTGWIPAPRCTLKPCDYPDIKHGGLYHENMRRPYFPVAVGKYYSYYCDEHFETPSGSYWDHIHCTQDGWSPAVPCLRKCYFPYLENGYNQNYGRKFVQGKSIDVACHPGYALPKAQTTVTCMENGWSPTPRCIRVSFTL
B2: FHR1: Complement Factor H-related 1, SEQ ID NO:3 (protein)
chain: MWLLVSVILISRISSVGGEATFCDFPKINHGILYDEEKYKPFSQVPTGEVFYYSCEYNFVSPSKSFWTRITCTEEGWSPTPKCLRLCFFPFVENGHSESSGQTHLEGDTVQIICNTGYRLQNNENNISCVERGWSTPPKCRSTDTSCVNPPTVQNAHILSRQMSKYPSGERVRYECRSPYEMFGDEEVMCLNGNWTEPPQCKDSTGKCGPPPPIDNGDITSFPLSVYAPASSVEYQCQNLYQLEGNKRITCRNGQWSEPPKCLHPCVISREIMENYNIALRWTAKQKLYLRTGESAEFVCKRGYRLSSRSHTLRTTCWDGKLEYPTCAKR
B3: FHR2: Complement Factor H-related 2, SEQ ID NO:4 and 5 (protein, UniProt P36980 19-270, looked up)
Complement factor H-related …: EAMFCDFPKINHGILYDEEKYKPFSQVPTGEVFYYSCEYNFVSPSKSFWTRITCAEEGWSPTPKCLRLCFFPFVENGHSESSGQTHLEGDTVQIICNTGYRLQNNENNISCVERGWSTPPKCRSTISAEKCGPPPPIDNGDITSFLLSVYAPGSSVEYQCQNLYQLEGNNQITCRNGQWSEPPKCLDPCVISQEIMEKYNIKLKWTNQQKLYSRTGDIVEFVCKSGYHPTKSHSFRAMCQNGKLVYPSCEEK
B4: FHR3: Complement Factor H-related 3, SEQ ID NO:6 and 7 (protein, UniProt Q02985 19-330, looked up)
Complement factor H-related …: QVKPCDFPDIKHGGLFHENMRRPYFPVAVGKYYSYYCDEHFETPSGSYWDYIHCTQNGWSPAVPCLRKCYFPYLENGYNQNYGRKFVQGNSTEVACHPGYGLPKAQTTVTCTEKGWSPTPRCIRVRTCSKSDIEIENGFISESSSIYILNKEIQYKCKPGYATADGNSSGSITCLQNGWSAQPICINSSEKCGPPPPISNGDTTSFLLKVYVPQSRVEYQCQPYYELQGSNYVTCSNGEWSEPPRCIHPCIITEENMNKNNIKLKGRSDRKYYAKTGDTIEFMCKLGYNANTSILSFQAVCREGIVEYPRCE
B5: FHR4: Complement Factor H-related 4 (FHR4A, FHR4B), SEQ ID NO:8 and 9 (protein, UniProt Q92496 20-578, looked up)
Complement factor H-related …: EVKPCDFPEIQHGGLYYKSLRRLYFPAAAGQSYSYYCDQNFVTPSGSYWDYIHCTQDGWSPTVPCLRTCSKSDVEIENGFISESSSIYILNEETQYNCKPGYATAEGNSSGSITCLQNGWSTQPICIKFCDMPVFENSRAKSNGMWFKLHDTLDYECYDGYESSYGNTTDSIVCGEDGWSHLPTCYNSSENCGPPPPISNGDTTSFPQKVYLPWSRVEYQCQSYYELQGSKYVTCSNGDWSEPPRCISMKPCEFPEIQHGHLYYENTRRPYFPVATGQSYSYYCDQNFVTPSGSYWDYIHCTQDGWLPTVPCLRTCSKSDIEIENGFISESSSIYILNKEIQYKCKPGYATADGNSSGSITCLQNGWSAQPICIKFCDMPVFENSRAKSNGMRFKLHDTLDYECYDGYEISYGNTTGSIVCGEDGWSHFPTCYNSSEKCGPPPPISNGDTTSFLLKVYVPQSRVEYQCQSYYELQGSNYVTCSNGEWSEPPRCIHPCIITEENMNKNNIQLKGKSDIKYYAKTGDTIEFMCKLGYNANTSVLSFQAVCREGIVEYPRCE
B6: FHR5: Complement Factor H-related 5, SEQ ID NO:10 (protein)
chain: MLLLFSVILISWVSTVGGEGTLCDFPKIHHGFLYDEEDYNPFSQVPTGEVFYYSCEYNFVSPSKSFWTRITCTEEGWSPTPKCLRMCSFPFVKNGHSESSGLIHLEGDTVQIICNTGYSLQNNEKNISCVERGWSTPPICSFTKGECHVPILEANVDAQPKKESYKVGDVLKFSCRKNLIRVGSDSVQCYQFGWSPNFPTCKGQVRSCGPPPQLSNGEVKEIRKEEYGHNEVVEYDCNPNFIINGPKKIQCVDGEWTTLPTCVEQVKTCGYIPELEYGYVQPSVPPYQHGVSVEVNCRNEYAMIGNNMITCINGIWTELPMCVATHQLKRCKIAGVNIKTLLKLSGKEFNHNSRIRYRCSDIFRYRHSVCINGKWNPEVDCTEKREQFCPPPPQIPNAQNMTTTVNYQDGEKVAVLCKENYLLPEAKEIVCKDGRWQSLPRCVESTAYCGPPPSINNGDTTSFPLSVYPPGSTVTYRCQSFYKLQGSVTVTCRNKQWSEPPRCLDPCVVSEENMNKNNIQLKWRNDGKLYAKTGDAVEFQCKFPHKAMISSPPFRAICQEGKFEYPICE

experiment: Complement protein levels in blood of COVID-19 patients by mass spectrometry (one-way ANOVA, ROC); settings: first-test blood samples

Molecule | Level in blood of COVID-19 patients requiring assisted ventilation (group E) relative to healthy controls
B1 | Statistically-significant elevations
B2 | Statistically-significant elevations
B3 | Statistically-significant elevations
B4 | Statistically-significant elevations
B5 | Statistically-significant elevations
B6 | Statistically-significant elevations

Some compounds share one wording; it may come from a single statement.
